Source: patent publication US20120270774A1, “MACROCYCLIC COMPOUNDS, COMPOSITIONS COMPRISING THEM AND METHODS FOR PREVENTING OR TREATING HIV INFECTION” (Yissum Research Development Company of the Hebrew …, priority 2009, published 2012)

Tested on: Caco-2 monolayers
Assay: Intestinal permeability in-vitro, Caco-2 model
Type: in vitro ADME
Details: apical to basolateral; markers testosterone and mannitol

N=C(N)NCCCC1NC(=O)NCCCCC(=O)NC(Cc2ccccc2)CN(CC(N)=O)C1=O (stereo not shown)
permeability coefficient (Papp) in Caco-2 model (in words): better Papp values than testosterone
